Test: Single-dose crossover clinical study: bioavailability of Compound 1/Compound 2 mini-tablets
Settings: mini-tablets (200 mg Compound 1) administered with food; reference regular tablets fasting
Experimental: In comparison, when administered with food, the mini-tablets provided an AUC that was only 5% lower than that provided by the regular tablets. […] All of the reference AUCs of the regular tablets were measured under fasting conditions.
14 subjects were enrolled in this study and dosed with co-formulated Compound 1/Compound 2 in mini-tablets. One subject spilled 4 mini-tablets (out of 100-150 total mini-tablets) during dosing of Period 2 (Regimen G) and was not excluded from the analysis. The mini-tablets were prepared according to a process similar to that described in Example 2.

SMILES: CC(C)(C)[C@@H]1NC(=O)O[C@@H]2CCC[C@H]2OC/C=C/C(F)(F)c2nc3ccccc3nc2O[C@@H]2C[C@@H](C(=O)N[C@]3(C(=O)NS(=O)(=O)C4(C)CC4)C[C@H]3C(F)F)N(C2)C1=O
- AUC of mini-tablets lower than that provided by regular tablets: 5%
